Like-named read-outs stand apart in the source and are kept apart here.
Assays:
Test in all cases: SPR; left panel
[1] = target: SARS-CoV-2 mutant trimer UK TB918-09
[2] = target: SARS-CoV-2 mutant trimer South Africa TB918-08
[3] = target: SARS-CoV-2 mutant trimer South Africa TB918-08; remark: listed apart in the source

Row | Binder | Kd [1] [nM] | Kd [2] [nM] | Kd [3] [nM]
1 | 6-63 (Fc fusion) EVQLVESGGGLVQPGGSLRLSCAASGQTFNMGWFRQAPGKEREFVAAIGSGGSTSYADSVKGRFTISADNSKNTAYLQMNSLKPEDTAVYYCWRLGNDYFDYWGQGTLVTVSS | 1.9 | 5000 | –
2 | 6-3 (Fc fusion) EVQLVESGGGLVQPGGSLRLSCAASGFTFSPSWMGWFRQAPGKEREFVATINEYGGRNYADSVKGRFTISADNSKNTAYLQMNSLKPEDTAVYYCARVDRDFDYWGQGTLVTVSS | – | – | 233

Source: patent US20230002478A1, “Methods and compositions relating to covid antibody epitopes” (published 2023)
